Pooled drug test results. Numbers come from NIAID ChemDB, via PubChem.

All rows: tests in culture; agent: Candida albicans; read by: broth dilution; read-out: MIC

Conditions beyond the fields shown may differ between rows.

compound,conditions,strain,result
Cc1nc2c(=O)n(-c3ccc(S(N)(=O)=O)cc3)nc(C)c2s1,-,ATCC 10231,100 µg/mL
CCN1CC(C)(C)OC(=O)C1CC(=O)Nc1ccccn1,-,SC5314,>50 µg/mL
Cc1ccc(-c2nnc(SCC(O)(Cn3cncn3)c3ccc(Cl)cc3Cl)n2N)cc1,-,PTCC 6027,2 µg/mL
CCN1CC(C)(C)OC(=O)C1CC(=O)NCC1CCCCC1,-,SC5314,>25 µg/mL
Cc1ccccc1N/N=c1/sc2nnc(-c3ccncc3)n2nc1C,-,ATCC 10231,>100 µg/mL
Oc1ccccc1C1OCC(COCc2ccccc2)O1,-,ATCC 10231,78.12 µg/mL
O=C1c2ccccc2C(=O)C2CC(O)OCC12,-,ATCC 18804,340.3 µM
CC(C)(O)c1cn(-c2ccc(Cl)cc2)nn1,-,URM 4990,256 µg/mL
CCCCCCCCCC(=O)NC(CCCN)C(=O)NC(CCCN)C(=O)NC(CCCN)C(=O)NC(CCCN)C(=O)NC(CCCN)C(N)=O,-,ATCC 24433,100 µg/mL
COc1ccccc1OCC(=O)c1ccccc1,48 h,ATCC 10231,>125 µg/mL
Cc1ccc(N/N=c2/sc3nnc(-c4ccncc4)n3nc2C)cc1,-,ATCC 10231,>100 µg/mL
COC(=O)C1OC(c2ccccc2O)OC1C(=O)OC,-,ATCC 10231,312.5 µg/mL
Cc1nn(C(=O)Nc2ccc(Cl)cc2)c(=O)c2c(C)noc12,-,ATCC 10231,≥200 µg/mL
Nn1c(SCC(O)(Cn2cncn2)c2ccc(Cl)cc2Cl)nnc1-c1ccc(F)cc1,-,IRFC 192,>64 µg/mL
CCCCCCCCCCCCCCCCCC(=O)NC(CCCN)C(=O)NC(CCCN)C(=O)NC(CCCN)C(=O)NC(CCCN)C(=O)NC(CCCN)C(N)=O,-,ATCC 24433,3.1 µg/mL
O/N=C(\COc1ccccc1)c1ccccc1,24 h,ATCC 10231,>125 µg/mL
COc1ccc(-c2nnc(SCC(O)(Cn3cncn3)c3ccc(Cl)cc3Cl)n2N)cc1,-,IRFC 37,4 µg/mL
Cc1nn(C(=S)Nc2ccc(F)cc2)c(=O)c2c(C)noc12,-,ATCC 10231,50 µg/mL
Nn1c(SCC(O)(Cn2cncn2)c2ccc(F)cc2F)nnc1-c1ccccc1,-,ATCC 18804,>64 µg/mL
COC(=O)c1cc(O)c(O)c2oc3cc(OC)cc(O)c3c(=O)c12,-,ATCC 18804,>62.5 µg/mL
Cc1nn(-c2ccc(S(=O)(=O)NC(=S)Nc3ccc(Cl)cc3)cc2)c(=O)c2c(C)noc12,-,ATCC 10231,25 µg/mL
CCCCCCCCCCCCCCCCCC(=O)NC(CCCN)C(=O)NC(CCCN)C(N)=O,-,ATCC 24433,12.5 µg/mL
Cc1nn2c(-c3ccncc3)nnc2s/c1=N/Nc1ccc(F)cc1,-,ATCC 66027,50 µg/mL
CCCCCCCCCCCCCC(=O)NC(CCCN)C(N)=O,-,ATCC 24433,>100 µg/mL
O=C1C2=C(OC(CI)C2)C(=O)c2ccccc21,-,Clinical isolate,10.7 µg/mL
COc1cccc(OCC(=O)c2ccccc2)c1,24 h,ATCC 10231,>125 µg/mL
CC(C)c1ccc(NC(=O)CC2C(=O)OC(C)(C)CN2C2CCCC2)cc1,-,SC5314,>25 µg/mL
CCCCCCCC(=O)NC(CCCN)C(N)=O,-,ATCC 24433,>100 µg/mL
CCN1CC(C)(C)OC(=O)C1CC(=O)NC1CCCCC1,-,SC5314,50 µg/mL
Cc1nn2c(-c3ccncc3)nnc2sc1=NNc1ccc(Br)cc1,-,ATCC 66027,12.5 µg/mL
COc1ccccc1OC/C(=N/O)c1ccccc1,48 h,ATCC 10231,>125 µg/mL
Nn1c(SCC(O)(Cn2cncn2)c2ccc(Cl)cc2Cl)nnc1-c1ccncc1,-,ATCC 18804,>64 µg/mL
Cc1nn2c(C(F)(F)F)nnc2c2c(C)noc12,-,ATCC 10231,≥200 µg/mL
CCN1CC(C)(C)OC(=O)C1CC(=O)Nc1ccncn1,-,SC5314,>50 µg/mL
O/N=C(/COc1ccc(F)cc1)c1ccccc1,48 h,ATCC 10231,31.25 µg/mL
CCN1CC(C)(C)OC(=O)C1CC(=O)Nc1c(C)noc1C,-,SC5314,>50 µg/mL
CCCCCCCC(=O)NC(CCCN)C(=O)NC(CCCN)C(=O)NC(CCCN)C(N)=O,-,ATCC 24433,>100 µg/mL
CC(C)c1ccc(NC(=O)CC2C(=O)OC(C)(C)CN2C)cc1,-,SC5314,>25 µg/mL
CC(C)OC(=O)[C@@H]1OC(c2ccccc2O)O[C@H]1C(=O)OC(C)C,-,ATCC 10231,156 µg/mL

Repeating the final 4 entries:

compound	conditions	strain	result
CCN1CC(C)(C)OC(=O)C1CC(=O)Nc1c(C)noc1C	-	SC5314	>50 µg/mL
CCCCCCCC(=O)NC(CCCN)C(=O)NC(CCCN)C(=O)NC(CCCN)C(N)=O	-	ATCC 24433	>100 µg/mL
CC(C)c1ccc(NC(=O)CC2C(=O)OC(C)(C)CN2C)cc1	-	SC5314	>25 µg/mL
CC(C)OC(=O)[C@@H]1OC(c2ccccc2O)O[C@H]1C(=O)OC(C)C	-	ATCC 10231	156 µg/mL

An empty or dashed field is not shown.